Assay results reported in patent US20230310414A1.

Assays:
[1] = tested on: SARS-CoV-2 Spike (S) protein treated human macrophages; test: apoptosis by caspase 3 activation in Spike protein treated macrophages; format: cell-based; conditions: within 2 hours of treatment
[2] = tested on: SARS-CoV-2 Spike (S) protein treated human macrophages; format: cell-based

(14S,27S)-22,33-dimethoxy-13,28-dimethyl-2,5,7,20-tetraoxa-13,28-diazaoctacyclo[25.6.2.2^16,19.1^3,10.1^21,25.0^4,8.0^31,35.0^14,39]nonatri-aconta-1(33),3(39),4(8),9,16(38),17,19(37),21,23,25(36),31,34-dodecaene [cepharanthine]
apoptosis by activation of caspase 3 [1]: selectively induces apoptosis | anti-inflammatory cytokines such as IL-10 [2]: inducing | pro-inflammatory cytokines VEGF, IL-6, IL-8, GRO, MIP-1α, MIP-1β and MMP-9 [2]: selectively inhibited
